Measurements reported in PubChem BioAssay AID1224833 (University of Georgia, 2016)

Purpose: 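Human genes whose knock-down alters rotavirus replication in monkey cells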 (primary screen)
System: monkey MA104 kidney cells
Knock-down reagent: siRNA pool against human genes, 50 nM
Duration: 48 h knock-down before infection; read 24 h after infection
Treatment: infection with rotavirus strain RV3 two days after transfection; infectious dose for this stage not given
Detection: 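Rotavirus antigen per well by fluorescent immunoassay, normalised to non-targeting control wells on each plate and given as a standard z-score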
Reading the numbers: z-score vs non-targeting control: higher = more rotavirus replication than with non-targeting control
Hit rule: In these data the active calls have z-score vs non-targeting control at about -1 or lower, or at about 1 or higher
Calls: active = z-score beyond 1 either way; inactive = z-score within 1 of zero
Here is a random part of about 12,000 deposited reagents. About 5,600 of them (46%) count as active. 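Active calls cover z-scores past 1 in both directions, so they include lowered as well as raised rotavirus replication.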 Reagent sequences are not shown.

With knock-down of TRAFD1 the results were z-score vs non-targeting control -1.56; active. C22orf15 showed z-score vs non-targeting control -0.571; inactive. GLDN scored z-score vs non-targeting control -0.477; inactive. Knock-down of SCFD1 resulted in: z-score vs non-targeting control -0.713; inactive. With knock-down of SLC10A6 the results were z-score vs non-targeting control -0.347; inactive. After knock-down of ABCC10 the results were z-score vs non-targeting control -0.727; inactive.

For C21orf91, the values are z-score vs non-targeting control -1.51; active. Depletion of SNCA came out at: z-score vs non-targeting control -1.45; active. Knock-down of POU2F2 came out at: z-score vs non-targeting control -1.65; active. Knock-down of SRP54 came out at: z-score vs non-targeting control 0.518; inactive. After knock-down of SPHAR (retired record) the results were z-score vs non-targeting control -0.369; inactive. With knock-down of LY6G6D, the record shows z-score vs non-targeting control -0.0703; inactive.

For CCDC28B the deposit lists z-score vs non-targeting control 1.74; active. Depletion of USP22 gave: z-score vs non-targeting control -0.816; inactive. C5AR1 showed z-score vs non-targeting control -0.568; inactive. GTF2F2 showed z-score vs non-targeting control 1.71; active. Depletion of ZNF275 gave: z-score vs non-targeting control -2.11; active. With knock-down of MEGF9, the record shows z-score vs non-targeting control 0.41; inactive.

After knock-down of TAS2R41, the record shows z-score vs non-targeting control -0.45; inactive.

Looked up above.
Entry for GLDN in “z-score vs non-targeting control”: -0.477
Value of MEGF9 in “z-score vs non-targeting control”: 0.41
For “z-score vs non-targeting control”, POU2F2 has -1.65

Next entries follow.
C4orf51 gave z-score vs non-targeting control -0.863; inactive. With knock-down of INSC, the screen gave z-score vs non-targeting control 1.79; active. For TACR3, the entry reads z-score vs non-targeting control -0.558; inactive. Against CD40LG, the entry reads z-score vs non-targeting control -1.63; active. Depletion of KREMEN1 gave: z-score vs non-targeting control -2.65; active. Against XRCC4 the deposit lists z-score vs non-targeting control 1.32; active.

Knock-down of SLC6A12 came out at: z-score vs non-targeting control -1.74; active. Against ARSA, the values are z-score vs non-targeting control 0.74; inactive. VAPA showed z-score vs non-targeting control -1.25; active. POGLUT1 scored z-score vs non-targeting control -1.81; active. Depletion of DSG4 gave: z-score vs non-targeting control 0.194; inactive. With knock-down of BTLA, the screen gave z-score vs non-targeting control 2.42; active.

RAB33B scored z-score vs non-targeting control -0.708; inactive.
